Assay results as given in patent publication US10407428B2, “Spiro-isoquinoline-1,4′-piperidine compounds having multimodal activity against pain” (ESTEVE PHARMACEUTICALS, S.A., priority 2014, dated 2019).

Test system: human σ1 receptor and human μ-opioid receptor
Experiment: Human σ1 receptor radioligand assay and human μ-opioid receptor radioligand assay (μ and σ1 dual binding)
Conditions: read-out: μ and σ1 dual binding; combined class for Ki-μ ([3H]-DAMGO, CHO-K1 membranes) and Ki-σ1 ([3H](+)-pentazocine, HEK-293 membranes)

Compound | Ki [µM]
CC(C)C(=O)N1CCc2ccccc2C12CCN(CCc1ccccc1)CC2 | < 0.5
CC(=O)N1CCc2cc(Cl)ccc2C12CCN(CCc1ccccc1)CC2 | < 0.1
CC(=O)N1CCc2ccccc2C12CCN(CCc1ccccc1)CC2 | < 0.5
CC(=O)N1CCc2ccccc2C12CCN(CCc1ccnc(C#N)c1)CC2 | < 0.5
CC(=O)N1CCc2ccccc2C12CCN(CCc1cccnc1)CC2 | < 0.5
CC(=O)N1CCc2ccccc2C12CCN(CCc1cncc(Cl)c1)CC2 | < 0.5
CC(=O)N1CCc2ccccc2C12CCN(CCc1ccnc(C(F)(F)F)c1)CC2 | < 0.5
CC(=O)N1CCc2ccccc2C12CCN(CCN1CCOCC1)CC2 | < 0.5
CC(=O)N1CCc2cc(O)ccc2C12CCN(CCc1ccccc1)CC2 | > 0.5
COc1ccc2c(c1)CCN(C(C)=O)C21CCN(CCc2ccccc2)CC1 | < 0.5
CC(=O)Nc1cccc(CCN2CCC3(CC2)c2ccccc2CCN3C(C)=O)c1 | < 0.5
CC(=O)N1CCc2ccccc2C12CCN(CCc1cccc(OC(F)(F)F)c1)CC2 | < 0.5
CC(=O)N1CCc2ccccc2C12CCN(CCc1ccncc1F)CC2 | < 0.5
CC(=O)N1CCc2ccccc2C12CCN(CCc1ccncc1)CC2 | < 0.5
CC(=O)N1CCc2ccccc2C12CCN(CCN(C)Cc1ccccc1)CC2 | < 0.5
O=C(c1ccco1)N1CCc2ccccc2C12CCN(CCc1ccccc1)CC2 | < 0.5
CC(=O)N1CCc2ccccc2C12CCN(CCc1cncc(F)c1)CC2 | < 0.5
CC(=O)N1CCc2ccccc2C12CCN(CCN(C)c1ccccc1)CC2 | < 0.1
